Assays:
[1] = system: B. thuringiensis; assay: Test Example 9: concentration of amphotericin B; assay type: cell-based; conditions: NBRC101235
[2] = system: E. amnigenus; assay: Test Example 10: agar medium with aztreonam or ceftazidime; conditions: ATCC33072, 22 hours

C[C@@H]1[C@H](O)[C@@H](C)/C=C/C=C/C=C/C=C/C=C/C=C/C=C/[C@H](O[C@@H]2O[C@H](C)[C@@H](O)[C@H](N)[C@@H]2O)C[C@@H]2O[C@](O)(C[C@@H](O)C[C@@H](O)[C@H](O)CC[C@@H](O)C[C@@H](O)CC(=O)O[C@H]1C)C[C@H](O)[C@H]2C(=O)O [Amphotericin B]
colony color ([1]; Amphotericin B 0.1 mg, 24 hours, 10^2 cfu/mL): (Blue)
colony color ([1]; Amphotericin B 0.1 mg, 24 hours, 10^3 cfu/mL): (Blue)
colony color ([1]; Amphotericin B 0.1 mg, 24 hours, 10^4 cfu/mL): (Blue)
colony color ([1]; Amphotericin B 0.1 mg, 24 hours, 10^5 cfu/mL): (Blue)
colony color ([1]; Amphotericin B 0.1 mg, 44 hours, 10^2 cfu/mL): (Blue)
colony color ([1]; Amphotericin B 0.1 mg, 44 hours, 10^3 cfu/mL): (Blue)
colony color ([1]; Amphotericin B 0.1 mg, 44 hours, 10^4 cfu/mL): (Blue)
colony color ([1]; Amphotericin B 0.1 mg, 44 hours, 10^5 cfu/mL): (Blue)
colony color ([1]; Amphotericin B 1.0 mg, 24 hours, 10^2 cfu/mL): (Blue)
colony color ([1]; Amphotericin B 1.0 mg, 24 hours, 10^3 cfu/mL): (Blue)
colony color ([1]; Amphotericin B 1.0 mg, 24 hours, 10^4 cfu/mL): (Blue)
colony color ([1]; Amphotericin B 1.0 mg, 24 hours, 10^5 cfu/mL): (Blue)
colony color ([1]; Amphotericin B 1.0 mg, 44 hours, 10^2 cfu/mL): (Blue)
colony color ([1]; Amphotericin B 1.0 mg, 44 hours, 10^3 cfu/mL): (Blue)
colony color ([1]; Amphotericin B 1.0 mg, 44 hours, 10^4 cfu/mL): (Blue)
colony color ([1]; Amphotericin B 1.0 mg, 44 hours, 10^5 cfu/mL): (Blue)
colony color ([1]; Amphotericin B 10 mg, 24 hours, 10^2 cfu/mL): (Blue)
colony color ([1]; Amphotericin B 10 mg, 24 hours, 10^3 cfu/mL): (Blue)
colony color ([1]; Amphotericin B 10 mg, 24 hours, 10^4 cfu/mL): (Blue)
colony color ([1]; Amphotericin B 10 mg, 24 hours, 10^5 cfu/mL): (Blue)
colony color ([1]; Amphotericin B 10 mg, 44 hours, 10^2 cfu/mL): (Blue)
colony color ([1]; Amphotericin B 10 mg, 44 hours, 10^3 cfu/mL): (Blue)
colony color ([1]; Amphotericin B 10 mg, 44 hours, 10^4 cfu/mL): (Blue)
colony color ([1]; Amphotericin B 10 mg, 44 hours, 10^5 cfu/mL): (Blue)

C[C@H]1[C@H](NC(=O)/C(=N\OC(C)(C)C(=O)O)c2csc(N)n2)C(=O)N1S(=O)(=O)O [aztreonam]
colony color ([2]; Aztreonam 0.05 mg, 10^5 cfu/mL): (White)

CC(C)(O/N=C(\C(=O)N[C@@H]1C(=O)N2C(C(=O)[O-])=C(C[n+]3ccccc3)CS[C@H]12)c1csc(N)n1)C(=O)O [ceftazidime]
colony color ([2]; Ceftazidime 0.05 mg, 10^3 cfu/mL): (White)
colony color ([2]; Ceftazidime 0.05 mg, 10^4 cfu/mL): (White)
colony color ([2]; Ceftazidime 0.05 mg, 10^5 cfu/mL): (White)

— patent US12618095B2, “Medium for Bacillus cereus group detection” (SHIMADZU DIAGNOSTICS CORPORATION, priority 2020, dated 2026)
